Compound potency records, mixed from different reports. Data source: NIAID ChemDB in PubChem.

Common to all: tests in culture; species: Varicella zoster virus; read-out: EC50

Blank or dashed fields: not listed here. ECn: concentration that inhibits the pathogen or its effect by n%. Conditions beyond the fields shown may differ between rows.

| structure | method | strain or isolate | cells | result |
|---|---|---|---|---|
| Nc1ncnc2c1ncn2C[C@@H](CO)OCP(=O)(O)O | plaque count | PCV-resistant/B | HEL | 0.0054 µg/mL |
| Cc1cn([C@@H]2O[C@H](CO)[C@@H](O)[C@@H]2O)c(=O)[nH]c1=O | plaque count | YS/R (TK-) | HEL | 19.8 µM |
| Nc1nc(N)c2nnn(C[C@H]3CC[C@@H](CO)C3)c2n1 | plaque count | OKA | HEL | >50 µg/mL |
| Nc1nc2c(ncn2[C@@H]2O[C@H](CO)[C@H]2CO)c(=O)[nH]1 | plaque count | 13 isolates | HEL | 0.24 µM |
| C[C@H](Cn1cnc2c(N)ncnc21)OCP(=O)(O)O | cytopathic effect | YS | - | ≥350 µM |
| Nc1nc(Cl)c2nnn(C[C@H]3CC[C@@H](CO)C3)c2n1 | plaque count | OKA | HEL | >200 µg/mL |
| Nc1ncnc2c1ncn2CCOCP(=O)(O)O | cytopathic effect | Oka PFA-resistant/A | HEL | 86.7 µM |
| Nc1cc(OC[C@H](CO)OCP(=O)(O)O)nc(N)n1 | cytopathic effect | YS | - | 0.51 µM |
| Nc1nc2c(ncn2CCC(CO)CO)c(=O)[nH]1 | plaque count | ACV-resistant | HEL | 6.8 µg/mL |
| Nc1ncnc2c1ncn2[C@@H]1O[C@H](CO)[C@@H](O)[C@@H]1O | plaque count | YS/R (TK-) | HEL | 14.2 µM |
| O=C(O)P(=O)(O)O | plaque count | PFA-resistant/B | HEL | 82.3 µg/mL |
| Nc1ncnc2c1ncn2[C@@H]1C=C(CO)[C@@H](O)[C@H]1O | cytopathic effect | YS/R (TK-) | HEL | 1.9 µg/mL |
| Nc1nc2c(nnn2C[C@H]2CC[C@@H](CO)C2)c(=O)[nH]1 | plaque count | 07/1 (TK-) | HEL | >50 µg/mL |
| C[C@H](COc1cc(N)nc(N)n1)OCP(=O)(O)O | cytopathic effect | OKA | - | 17 µM |
| O=c1[nH]c(=O)n([C@H]2C[C@H](O)[C@@H](CO)O2)cc1/C=C/Br | plaque count | OKA | HEL | 0.0005 µg/mL |
| O=c1[nH]c(=O)n([C@@H]2O[C@H](CO)[C@@H](O)[C@@H]2O)cc1/C=C/Br | plaque count | OKA | HEL | 0.000049 µg/mL |
| Nc1nccc2c1ncn2C[C@@H](CO)OCP(=O)(O)O | plaque count | YS (TK+) | HEL | 0.21 µM |
| Nc1nc2c(ncn2C[C@H]2CC[C@@H](CO)C2)c(=O)[nH]1 | plaque count | OKA | HEL | >200 µg/mL |